Compound potency records, mixed from different reports. Data source: NIAID ChemDB in PubChem.

All rows: whole-cell or culture tests; species: HIV-1; read-out: EC50

ECn: concentration that inhibits the pathogen or its effect by n%. Rows are shuffled and stem from different studies. Blank or dashed fields: not listed here.

smiles	strain or isolate	mutations	cells	read by	setting	result
CC(C)(C)C(=O)OCOP(=O)(COCCn1cnc2c(N)ncnc21)OCOC(=O)C(C)(C)C	G3 R5 subtype G/- (env/gag)	RT-V35T E40D K173T R211K L214F	PBMC	p24	-	4.8 µM
Nc1ccn([C@H]2C=C[C@@H](CO)O2)c(=O)n1	HXB2	RT-L74V	CD4+HELA + HeLa	plaque count	-	0.7 µM
Cc1ccnc2c1NC(=O)c1cccnc1N2C1CC1	MN	-	C8166	ELISA	-	0.018 µM
Cn1c2ccccc2c2c1cc(C#N)c(=O)n2-c1ccc([N+](=O)[O-])cc1	NNRTI-resistant	RT-K103N P225H	HeLa	luciferase	-	0.0046 µM
Cc1cn([C@H]2C[C@H](N=[N+]=[N-])[C@@H](CO)O2)c(=O)[nH]c1=O	G704-2 NRTI resistant	RT-M41L D67N K70R L210W T215Y	PBMC	p24	-	1.8 µM
CCCN(C)C(=O)Oc1nsnc1-c1c(Cl)ccc(N)c1Cl	IIIB	RT-V108I	MAGI	MTT	-	0.045 µM
CCn1nc(Cc2ccc(S(=O)(=O)c3ccccc3)cc2)cc1C1CCN(C[C@H]2CN([C@@H](C(=O)O)C(C)C)C[C@@H]2c2cccc(F)c2)CC1	BaL	-	HeLa	β-galactosidase	-	<0.0004 µM
Cc1cc(C#N)cc(C)c1Oc1nc(Nc2ccc(C#N)cc2)nc(N)c1Br	Clinical isolate	N348I	HEK293T	luciferase	clinical isolate	0.00452 µM
Nc1nc(=O)n([C@@H]2CS[C@H](CO)O2)cc1F	-	A62V V75I F77L F116Y Q151M	Primary T lymphocytes	p24 / ELISA	-	0.4 µM
O=c1[nH]cnc2c1ncn2[C@H]1CC[C@@H](CO)O1	Recombinant	RT-M41L A62V S68N G112S V118I M184V	HeLa	luciferase	-	1.85 µM
Cc1cn([C@H]2C=C[C@@H](CO)O2)c(=O)[nH]c1=O	A012B WT	-	MAGI (CCR5) + MAGI	β-galactosidase	-	0.33 µM
CCn1nc(Cc2ccc(F)c(F)c2)cc1C1CCN(C[C@H]2CN([C@@H](C(=O)O)C(C)C)C[C@@H]2c2cccc(F)c2)CC1	BaL	-	HeLa	β-galactosidase	-	<0.0074 µM
S=C(NCCc1cccs1)Nc1ccc(Br)cn1	G704-2 Clinical isolate NRTI-resistant	RT-M41L D67N K70R L210W T215Y	HT4 + HeLa	plaque count	-	0.01 µM
C/C(=C(/CCOC(=O)C(C)C)SS/C(CCOC(=O)C(C)C)=C(\C)N(C=O)Cc1cnc(C)nc1N)N(C=O)Cc1cnc(C)nc1N	MN	-	H9/HIV-1(MN) + H9	p24	-	<50 µM
CCn1nc(Cc2ccccc2)cc1C1CCN(C[C@H]2CN([C@@H](C(=O)O)C3CCCCC3)C[C@@H]2c2cccc(F)c2)CC1	BaL	-	HeLa	β-galactosidase	50% human serum	<0.1 µM
Cc1cn([C@H]2C[C@H](N=[N+]=[N-])[C@@H](CO)O2)c(=O)[nH]c1=O	G890-1 Clinical isolate ZDV-resistant	RT-K20R M41L D67N T69N K70R L210W T215Y	PBMC	p24	-	>3.2 µM
O=C1O[C@H]2[C@@H]3OC(=O)c4cc(O)c(O)c(O)c4-c4c(cc(O)c(O)c4O)C(=O)OC[C@H]2O[C@@H](OC(=O)c2cc(O)c(O)c(O)c2)[C@@H]3OC(=O)c2cc(O)c(O)c3c2[C@@H]2C1=CC(=O)[C@](O)(O3)C2(O)O	-	-	MAGI	β-galactosidase	-	0.25 µM
O=c1[nH]cnc2c1ncn2[C@H]1CC[C@@H](CO)O1	HXB2	RT-K65R	MAGI (CCR5) + MAGI	β-galactosidase	-	10 µM
Cc1ccnc2c1NC(=O)c1cccnc1N2C1CC1	3TC-resistant (RT M184V) M184V	RT-M184V	MAGI	β-galactosidase	-	0.064 µM
CCc1c(C(=O)c2cc(C)cc(C)c2)n(CC2CC=CC2)c(=O)[nH]c1=O	CLADE B	-	PBMC	cytopathic effect / XTT	clinical isolate	0.0006 µM
Nc1ccn([C@H]2CC[C@@H](CO)O2)c(=O)n1	RTMC(181 184) (RT 67N 70R Y181C M184V T215F K219Q)	RT-D67N K70R Y181C M184V T215F K219Q	HT4 + HT4 LacZ-1	plaque count	-	0.95 µM
CC[C@@H](C)[C@H](C(=O)O)N1C[C@H](CN2CCC(c3cc(Cc4ccc(C(F)(F)F)cc4)nn3CC)CC2)[C@@H](c2cccc(F)c2)C1	BaL	-	HeLa	β-galactosidase	-	<0.0004 µM
Nc1ccn([C@H]2CC[C@@H](CO)O2)c(=O)n1	U455	-	U-937	p24	-	0.05 µM
Nc1ccn([C@@H]2CS[C@H](CO)O2)c(=O)n1	-	4xAZT	Primary T lymphocytes	p24 / ELISA	-	0.7 µM
Nc1nc(=O)n([C@@H]2CS[C@H](CO)O2)cc1F	NL4-3	A502V	TZM-gfp	GFP	-	0.44 µM
COC(=O)[C@H](C)NP(=O)(OC[C@@H]1C=C[C@H](n2cc(C)c(=O)[nH]c2=O)O1)Oc1ccc(Br)cc1	T156-3 Clinical isolate ZDV-resistant	RT-M41L E44D D67N T69D L210W T215Y	PBMC	p24	-	0.0033 µM
C#C[C@]1(CO)O[C@@H](n2cnc3c(N)nc(F)nc32)C[C@@H]1O	Clinical isolate	T165A/M184I	MT4-GFP	fluorescence	-	0.0078 µM
CCOc1ccc(Cc2cc(C3CCN(C[C@H]4CN([C@@H](C(=O)O)C(C)(C)C)C[C@@H]4c4cccc(F)c4)CC3)n(CC)n2)cc1F	BaL	-	HeLa	β-galactosidase	50% human serum	<0.011 µM
Cc1c(C#N)cc(C(F)F)cc1Oc1c(C(F)(F)C(F)F)ncn(Cc2cc(F)c[nH]c2=O)c1=O	-	-	CD4+ T-cell	luminescence	-	0.0384 µM
Nc1ccn([C@H]2CC[C@@H](CO)O2)c(=O)n1	HXB2	RT-T215Y	CD4+HELA + HeLa	plaque count	-	0.1 µM
Nc1nc(=O)n([C@@H]2CS[C@H](CO)O2)cc1F	RTMN (RT-M41L T215Y)	RT-M41L 215Y	HT4 + HT4 LacZ-1	plaque count	-	0.34 µM
O=c1[nH]cnc2c1ncn2[C@H]1CC[C@@H](CO)O1	HXB2	-	HT4 + HT4 LacZ-1	plaque count	-	1.4 µM
N#CC[C@H](C1CCCC1)n1cc(-c2ncnc3[nH]ccc23)cn1	-	K65R	Primary T lymphocytes	p24 / ELISA	-	0.2 µM
CC(=O)N1CCC(C(=O)N(CCCN2CCC(Cc3ccc(C(N)=O)cc3)CC2)c2ccc(C)c(Cl)c2)CC1	R5 subtype C_3 recombinant	-	U87 (CD4+ CCR5+) + U87	luciferase	-	0.0045 µM
Cc1cn([C@H]2C[C@H](N=[N+]=[N-])[C@@H](CO)O2)c(=O)[nH]c1=O	A012B (RT-WT)	-	HT4 + HT4-6C	plaque count	-	0.01 µM
CC[C@H](C)[C@H](C(=O)O)N1C[C@H](CN2CCC(c3cc(Cc4ccc5c(c4)OCO5)nn3CC)CC2)[C@@H](c2cccc(F)c2)C1	BaL	-	HeLa	β-galactosidase	50% human serum	<0.1 µM
COC(=O)[C@H](C)NP(=O)(OC[C@@H]1C=C[C@H](n2cc(C)c(=O)[nH]c2=O)O1)Oc1ccc(Br)cc1	7324-1 NRTI resistant recombinant	RT-M41L D67N T69N K70R T215F K219E	PBMC	p24	-	0.0137 µM
N#Cc1cc2[nH]c3ccccc3c2n(-c2ccc([N+](=O)[O-])cc2)c1=O	Recombinant	RT-V118I M184V	HeLa	luciferase	-	0.58 µM

A second listing of 6 rows from above:

{"smiles": "Cc1ccnc2c1NC(=O)c1cccnc1N2C1CC1", "strain or isolate": "3TC-resistant (RT M184V) M184V", "mutations": "RT-M184V", "cells": "MAGI", "read by": "β-galactosidase", "result": "0.064 µM"}
{"smiles": "Cc1cn([C@H]2C[C@H](N=[N+]=[N-])[C@@H](CO)O2)c(=O)[nH]c1=O", "strain or isolate": "A012B (RT-WT)", "cells": "HT4 + HT4-6C", "read by": "plaque count", "result": "0.01 µM"}
{"smiles": "CC(=O)N1CCC(C(=O)N(CCCN2CCC(Cc3ccc(C(N)=O)cc3)CC2)c2ccc(C)c(Cl)c2)CC1", "strain or isolate": "R5 subtype C_3 recombinant", "cells": "U87 (CD4+ CCR5+) + U87", "read by": "luciferase", "result": "0.0045 µM"}
{"smiles": "Nc1nc(=O)n([C@@H]2CS[C@H](CO)O2)cc1F", "strain or isolate": "NL4-3", "mutations": "A502V", "cells": "TZM-gfp", "read by": "GFP", "result": "0.44 µM"}
{"smiles": "Nc1ccn([C@H]2C=C[C@@H](CO)O2)c(=O)n1", "strain or isolate": "HXB2", "mutations": "RT-L74V", "cells": "CD4+HELA + HeLa", "read by": "plaque count", "result": "0.7 µM"}
{"smiles": "Nc1ccn([C@@H]2CS[C@H](CO)O2)c(=O)n1", "mutations": "4xAZT", "cells": "Primary T lymphocytes", "read by": "p24 / ELISA", "result": "0.7 µM"}